Experimental data taken from patent publication US20120003661A1, “METHODS AND DEVICES FOR THE SELECTIVE DETECTION OF MICROORGANISMS” (C3 JIAN, INC., priority 2010, published 2012).

Test system: S. mutans
Assay: Selective permeabilization by STAMP, luciferase luminescence detection
Assay type: cell-based, Streptococcus mutans
Conditions: 10 minutes at room temperature

Sequence: TFFRLFNRSFTQALGKGGGKNLRIIRKGIHIIKKY [C16G2]
- ability of the assay to detect S. mutans in saliva (S. mutans spiked in fresh unfiltered unstimulated saliva, luciferase luminescence (FIG. 4)): capable of quantifying S. mutans spiked in a fresh unfiltered saliva sample
- detection level of the assay (cultured S. mutans serially diluted in growth media, luciferase luminescence (FIG. 3)): 10^4 cells/ml
